PubChem BioAssay AID624099, ICCB-Longwood | 2012
Aim: 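Human genes that papillomavirus E2 requires to repress the HPV18 LCR promoter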 (primary screen). Cells: human C33A cervical carcinoma cells (HPV-negative) stably expressing BPV1 E2 and an HPV18 LCR luciferase reporter. Reagent: siRNA pool against human genes, 40 nM. Timing: 72 h. Measured: 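HPV18 LCR reporter light per well, converted to plate-wise z-scores that exclude control wells, and averaged over triplicate plates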. Direction: mean z-score and z-score: higher = stronger reporter signal, weaker E2 silencing. Rule for the call: 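Mean z ≥ 2 together with z ≥ 2 in two or more of the three replicates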.
This is a random part of about 21,000 deposited reagents. 497 of all reagents (2.4%) were called active. 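Higher z means weaker E2 silencing; only reporter increases were scored, and knock-downs that hurt cell survival may mask genuine repressor factors.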 Unmarked entries are inactive. The numbers tell different reagents against one gene apart.

Target gene	reagent	mean z-score	z-score, replicate A	z-score, replicate B	z-score, replicate C
MMP8 (GeneID 4317)	1	0.1	0.16	-0.21	0.35
TEKT5 (GeneID 146279)	1	-0.75	-0.85	-0.62	-0.77
ZBED8L (GeneID 221786)	1	0.54	0.04	1.13	0.45
LINC02901 (GeneID 100130967)	1	-0.46	-0.48	-0.65	-0.26
TMEM86A (GeneID 144110)	1	0.87	0.9	1.22	0.49
TMEM74B (GeneID 55321)	1	0.14	0.21	0.13	0.07
WASHC4 (GeneID 23325)	1	0.32	0.33	0.37	0.26
ZNHIT6 (GeneID 54680)	1	1.12	1.21	1.04	1.1
MAP3K14 (GeneID 9020)	1	-0.2	-0.19	-0.57	0.17
TCTN1 (GeneID 79600)	1	0.56	0.72	0.54	0.42
RPL23AP82 (GeneID 284942)	1	1.08	1.17	1.03	1.03
LOC338825 (retired record) (GeneID 338825)	1	-0.91	-0.82	-0.93	-0.99
LINC00917 (GeneID 732275)	1	0.25	0.1	0.28	0.35
ZNF770 (GeneID 54989)	1	1.62	1.86	1.68	1.31
ATP8B4 (GeneID 79895)	1	-1.72	-1.37	-1.63	-2.15
STARD3 (GeneID 10948)	1	1.39	1.29	1.11	1.78
GLYAT (GeneID 10249)	1	1.01	1.07	1	0.95
RAB6B (GeneID 51560)	1	1.31	1.1	1.26	1.56
PPP1CB (GeneID 5500)	1	-0.08	-0.24	0	0
GPM6B (GeneID 2824)	1	0.05	0.19	-0.21	0.16
ATP9A (GeneID 10079)	1	-0.86	-0.83	-0.76	-1
CENPI (GeneID 2491)	1	0.25	0.06	0.5	0.19
PAPSS1 (GeneID 9061)	1	-0.39	-0.56	-0.32	-0.29
LOC389814 (retired record) (GeneID 389814)	1	-0.38	-0.5	-0.53	-0.11
TEDC2-AS1 (GeneID 729652)	1	0.95	1.06	0.77	1.02
LAMA4 (GeneID 3910)	1	-0.3	-0.5	0.03	-0.43
CHAMP1 (GeneID 283489)	1	-0.14	-0.35	-0.34	0.28
LSM8 (GeneID 51691)	1	-0.22	0.01	-0.36	-0.31
MORC3 (GeneID 23515)	1	0.75	0.64	0.64	0.98
ZRANB2 (GeneID 9406)	1	0.71	1.1	0.56	0.48
FCN3 (GeneID 8547)	1	-0.37	-0.46	-0.14	-0.51
SGF29P1 (GeneID 388242)	1	-1.6	-1.71	-1.66	-1.44
SLC6A20 (GeneID 54716)	1	1.04	0.89	1.18	1.05
BHLHA15 (GeneID 168620)	1	0.08	0.24	-0.08	0.08
SLC14A1 (GeneID 6563)	1	0.47	0.7	0.61	0.11
HNRNPA1L2 (GeneID 144983)	1	0.71	1.41	0.31	0.4
PSMD13 (GeneID 5719)	1	-1.23	-1.3	-1.22	-1.18
TKFC (GeneID 26007)	1	0.67	1.02	0.08	0.91
POU2F1 (GeneID 5451)	1	-0.6	-0.56	-0.63	-0.6
RPS6KL1 (GeneID 83694)	1	-0.52	-0.18	-0.74	-0.64
NOX5 (GeneID 79400)	1	0.84	0.65	0.74	1.12
RPL6 (GeneID 6128)	1	-2.05	-2.04	-2.02	-2.08
LYG2 (GeneID 254773)	1	-1.8	-1.57	-1.83	-1.99
GCSH (GeneID 2653)	1	0.96	1.17	0.97	0.74
TMEM158 (GeneID 25907)	1	1.2	1.25	0.97	1.38
ABHD17A (GeneID 81926)	1	2.28 (active)	2.01	2.58	2.24
RRP1B (GeneID 23076)	1	-0.86	-0.98	-1.01	-0.58
TMC5 (GeneID 79838)	1	-0.6	-0.96	-0.14	-0.7
SLC4A7 (GeneID 9497)	1	1.2	1.52	0.98	1.11
TPD52L1 (GeneID 7164)	1	0.15	0.2	0.27	-0.02
PTRH1 (GeneID 138428)	1	-0.75	-0.94	-0.51	-0.8
THAP5 (GeneID 168451)	1	-0.43	-0.98	-0.1	-0.22
TMEM63A (GeneID 9725)	1	0.85	0.83	0.66	1.06
GPR162 (GeneID 27239)	1	0.18	1.36	-0.01	-0.8
CHCT1 (GeneID 124773)	1	-0.96	-0.85	-1.28	-0.76
ADGRF1 (GeneID 266977)	1	1.21	1.13	1.12	1.37
ADGRF1 (GeneID 266977)	2	-0.41	-0.33	-0.43	-0.46
KLHL17 (GeneID 339451)	1	-0.07	-0.24	-0.09	0.13
ADPRH (GeneID 141)	1	0.38	0.38	0.4	0.35
IRF2BP1 (GeneID 26145)	1	-2.53	-2.57	-2.51	-2.52
LMX1A (GeneID 4009)	1	-0.39	-0.63	-0.43	-0.1
PEBP4 (GeneID 157310)	1	-0.07	-0.21	-0.31	0.3
CCDC196 (GeneID 440184)	1	0.21	-0.2	0.2	0.64
TMEM129 (GeneID 92305)	1	0.67	0.74	0.77	0.49
NAGK (GeneID 55577)	1	-0.1	-0.15	-0.16	0
MSI2 (GeneID 124540)	1	0.81	0.46	0.77	1.21
TRIP13 (GeneID 9319)	1	-0.59	-0.46	-0.66	-0.67
NDOR1 (GeneID 27158)	1	-0.79	-0.45	-0.64	-1.28
NDOR1 (GeneID 27158)	2	-0.84	-0.54	-0.59	-1.39
MTRES1 (GeneID 51250)	1	-0.74	-0.22	-1.03	-0.98
ZFAND2A (GeneID 90637)	1	0.03	0.45	-0.34	-0.03
KCNC4 (GeneID 3749)	1	0.6	0.96	0.42	0.41
LTBP2 (GeneID 4053)	1	1.07	1.24	1.16	0.82

11 of these entries, reformatted.
Target gene,reagent,mean z-score,"z-score, replicate A","z-score, replicate B","z-score, replicate C"
THAP5 (GeneID 168451),1,-0.43,-0.98,-0.1,-0.22
TMEM63A (GeneID 9725),1,0.85,0.83,0.66,1.06
GPR162 (GeneID 27239),1,0.18,1.36,-0.01,-0.8
CHCT1 (GeneID 124773),1,-0.96,-0.85,-1.28,-0.76
ADGRF1 (GeneID 266977),1,1.21,1.13,1.12,1.37
ADGRF1 (GeneID 266977),2,-0.41,-0.33,-0.43,-0.46
KLHL17 (GeneID 339451),1,-0.07,-0.24,-0.09,0.13
ADPRH (GeneID 141),1,0.38,0.38,0.4,0.35
IRF2BP1 (GeneID 26145),1,-2.53,-2.57,-2.51,-2.52
LMX1A (GeneID 4009),1,-0.39,-0.63,-0.43,-0.1
PEBP4 (GeneID 157310),1,-0.07,-0.21,-0.31,0.3
